The record followed here is US8945856B2, “Affinity-based detection of biological targets” (priority 2005, dated 2015).

Sequences of proteins named here, by UniProt entry; tags and fusion partners are left off.
UniProt P10844, whole entry, looked up: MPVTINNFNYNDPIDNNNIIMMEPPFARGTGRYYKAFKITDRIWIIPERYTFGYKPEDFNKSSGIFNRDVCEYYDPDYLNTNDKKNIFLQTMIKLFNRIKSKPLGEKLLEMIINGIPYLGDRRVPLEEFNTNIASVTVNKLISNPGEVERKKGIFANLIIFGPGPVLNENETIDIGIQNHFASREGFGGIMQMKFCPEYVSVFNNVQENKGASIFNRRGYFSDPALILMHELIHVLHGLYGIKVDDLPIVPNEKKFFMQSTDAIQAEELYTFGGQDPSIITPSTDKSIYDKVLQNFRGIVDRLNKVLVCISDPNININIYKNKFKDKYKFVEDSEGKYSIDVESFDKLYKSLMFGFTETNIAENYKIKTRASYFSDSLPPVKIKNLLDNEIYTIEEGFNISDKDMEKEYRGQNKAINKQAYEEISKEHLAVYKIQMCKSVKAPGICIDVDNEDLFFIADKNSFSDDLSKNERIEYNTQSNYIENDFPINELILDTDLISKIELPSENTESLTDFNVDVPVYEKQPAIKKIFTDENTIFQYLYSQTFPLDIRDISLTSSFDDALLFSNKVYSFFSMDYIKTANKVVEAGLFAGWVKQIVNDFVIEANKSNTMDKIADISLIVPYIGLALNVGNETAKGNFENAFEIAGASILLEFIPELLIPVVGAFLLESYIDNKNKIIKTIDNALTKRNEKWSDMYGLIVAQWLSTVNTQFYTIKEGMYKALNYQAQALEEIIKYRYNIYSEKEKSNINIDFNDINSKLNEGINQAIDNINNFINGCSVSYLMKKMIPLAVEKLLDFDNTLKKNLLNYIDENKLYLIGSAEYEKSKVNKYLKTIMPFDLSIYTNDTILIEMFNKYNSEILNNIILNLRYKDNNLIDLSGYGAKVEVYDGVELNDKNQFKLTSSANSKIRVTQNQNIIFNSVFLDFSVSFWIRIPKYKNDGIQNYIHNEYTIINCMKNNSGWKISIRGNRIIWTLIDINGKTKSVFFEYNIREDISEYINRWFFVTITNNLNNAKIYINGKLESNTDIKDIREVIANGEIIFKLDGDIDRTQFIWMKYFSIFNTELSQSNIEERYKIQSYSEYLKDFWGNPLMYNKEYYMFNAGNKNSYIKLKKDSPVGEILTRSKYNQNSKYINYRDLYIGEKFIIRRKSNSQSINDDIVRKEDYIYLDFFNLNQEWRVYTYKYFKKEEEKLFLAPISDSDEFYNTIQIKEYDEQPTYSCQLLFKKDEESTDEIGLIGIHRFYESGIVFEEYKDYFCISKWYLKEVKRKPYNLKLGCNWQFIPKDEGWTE

Molecules are shown by their SMILES. Some results are limits rather than exact numbers.

This experiment addresses bot toxoid B (Clostridium botulinum, UniProt P10844). The experiment is classed as binding.

With `CC[C@H](C)[C@H](NC(=O)CN)C(=O)NCC(=O)N[C@@H](C)C(=O)N[C@H](C(=O)N[C@@H](CC(C)C)C(=O)N[C@@H](CCCCN)C(=O)N[C@H](C(=O)N[C@@H](CC(C)C)C(=O)N[C@H](C(=O)N[C@H](C(=O)NCC(=O)N[C@@H](CC(C)C)C(=O)N1CCC[C@H]1C(=O)N[C@@H](C)C(=O)N[C@@H](CC(C)C)C(=O)N[C@H](C(=O)N[C@@H](CO)C(=O)N[C@@H](Cc1c[nH]c2ccccc12)C(=O)N[C@H](C(=O)N[C@@H](CCCCN)C(=O)N[C@@H](CCCNC(=N)N)C(=O)N[C@@H](CCCCN)C(=O)N[C@@H](CCCNC(=N)N)C(=O)N[C@@H](CCC(N)=O)C(=O)N[C@@H](CCC(N)=O)C(N)=O)[C@@H](C)CC)[C@@H](C)CC)[C@@H](C)O)[C@@H](C)O)C(C)C)C(C)C` [Melittin], the “Limit of detection of bot toxoid B” value was not above 5 ng/mL and the “Preferential binding, toxoid B versus toxoid A” value is “bound preferentially by toxoid B”.
